In ChEMBL document CHEMBL5038580 (J Med Chem, 2022):

Test system: Middle East respiratory syndrome-related coronavirus
Assay: Antiviral activity against MERS-CoV assessed as reduction in viral infection preincubated with virus for 30 mins followed by Huh-7 cells addition and culture replaced with fresh medium after 12 hrs post infection measured after 48 hrs by fluorescence assay

For `CC[C@H](C)[C@H](NC(C)=O)C(=O)N[C@@H](CCC(=O)O)C(=O)N[C@@H](CCC(=O)O)C(=O)N[C@H](C(=O)N[C@H](C(=O)N[C@@H](CCCCN)C(=O)N[C@@H](CCCCN)C(=O)N[C@H](C(=O)N[C@@H](Cc1c[nH]cn1)C(=O)N[C@@H](Cc1c[nH]cn1)C(=O)N[C@H](C(=O)N[C@@H](CCC(=O)O)C(=O)N[C@@H](CCCNC(=N)N)C(=O)N[C@@H](C)C(=O)N[C@H](C(=O)N[C@@H](CCC(=O)O)C(=O)N[C@@H](C)C(=O)N[C@@H](CCC(N)=O)C(=O)N[C@@H](CCC(N)=O)C(=O)N[C@@H](CCCCN)C(=O)N[C@@H](CC(C)C)C(=O)N[C@@H](CC(C)C)C(=O)N[C@@H](CCC(N)=O)C(=O)N[C@@H](CC(C)C)C(=O)N[C@H](C(=O)N[C@H](C(=O)N[C@@H](Cc1c[nH]c2ccccc12)C(=O)NCC(=O)N[C@H](C(=O)N[C@@H](CCCCN)C(=O)N[C@@H](CCC(N)=O)C(=O)N[C@@H](CC(C)C)C(=O)N[C@@H](CCC(N)=O)C(=O)N[C@@H](C)C(=O)N[C@@H](CCCNC(=N)N)C(=O)N[C@H](C(=O)N[C@@H](CC(C)C)C(N)=O)[C@@H](C)CC)[C@@H](C)CC)C(C)C)[C@@H](C)O)[C@@H](C)CC)[C@@H](C)CC)[C@@H](C)CC)C(C)C)[C@@H](C)CC`, the IC50 was > 20 µM.
